Our source for the IC50 values is ChEMBL document CHEMBL5247624, “N-sulfonylpiperidinedispiro-1,2,4,5-tetraoxanes exhibit potent in vitro antiplasmodial activity and in vivo efficacy in mice infected with P. berghei ANKA” (Eur J Med Chem, 2022).

The test system of this experiment is Plasmodium falciparum. In words: Antiplasmodial activity against erythrocytic stage of chloroquine-sensitive Plasmodium falciparum 3D7 assessed as inhibition of parasite growth incubated for 3 days by HRP2-ELISA assay. For orientation: In an ELISA, binding on a coated surface is turned into a signal by an enzyme label.

Structures are written as SMILES.

Turning to `C1CCC2(C1)OOC1(CCCC1)OO2`, the IC50 was determined as 0.0543 µM.

As a reminder, the IC50 is the concentration that gives 50% inhibition.
